{"source": "patent US20120088662A1", "about": "“FUNGICIDAL MIXTURES” (BASF SE, priority 2009, published 2012)", "system": "Pyricularia oryzae", "type": "cell-based", "conditions": "31 ppm, measured at 405 nm on day 7 after inoculation, active compound-free control =100%", "data": [{"smiles": "CCSc1ncnn1C[C@]1(c2ccc(F)cc2)O[C@H]1c1ccccc1Cl", "note": "(relative stereo) [I-18, trans-1-[3-(2-chlorophenyl)-2-(4-fluorophenyl)oxiranylmethyl]-5-ethylsulfanyl-1H-[1,2,4]triazole]", "values": [{"measurement": "growth (relative growth in % of the pathogens)", "value": 8, "unit": "%"}]}]}
